Pooled drug test results. Numbers come from NIAID ChemDB, via PubChem.

Shared fields: growth or infection tests; organism: HIV-2; method: cytopathic effect; measure: EC50

ECn is the concentration giving n% inhibition of infection, replication or growth. Rows are shuffled and stem from different studies. Blank or dashed fields: not listed here.

structure	strain	cells	value
Cc1ccc(C)c(CS(=O)c2ccc(Cl)c[n+]2[O-])c1	EHO	CEM	2.4 µg/mL
C#CCn1cc(C)c(=O)[nH]c1=O	ROD	MT-4	>100 µg/mL
NNC(=O)Cc1nc2n(n1)CCCCC2	ROD	MT-4	>125 µg/mL
CC(=O)OCCOCn1cc(Cn2cc(I)c(=O)[nH]c2=O)nn1	ROD	MT-4	>100 µg/mL
Cc1nc(Cc2n[nH]c(=S)n2-c2ccccc2)nn1C	ROD	MT-4	>60.8 µg/mL
C#CCn1cc(I)c(=O)[nH]c1=O	ROD	MT-4	>100 µg/mL
COc1ccc(S(=O)(=O)NCCCc2n[nH]c(=S)o2)cc1	ROD	MT-4	>125 µg/mL
CC1(C)[C@@H](CCO)C[C@H]1n1nnc2c(N)ncnc21	-	CEM	>20 µg/mL
C[C@@H](Cn1cnc2c(N)nc(N)nc21)OCP(=O)(O)O	LAV-2	MT-4	7.9 µM
Cc1cn(C(CF)CCCO)c(=O)[nH]c1=O	ROD	CEM	>100 µg/mL
CC1(C)[C@@H](CCO)C[C@H]1n1cnc2c(N)ncnc21	-	CEM	>20 µg/mL
Nc1nc2c(ncn2C[C@H](CO)OCP(=O)(O)O)c(=O)[nH]1	LAV-2	MT-4	>12.5 µM
Cc1ccc(C)c(CSc2c(Cl)ccc[n+]2[O-])c1	EHO	CEM	≥20 µg/mL
Cc1nc(CC(=O)NN)nn1C	ROD	MT-4	>94.8 µg/mL
Nc1nc(N)c2ncn(C[C@H](CO)OCP(=O)(O)O)c2n1	LAV-2	MT-4	21 µM
COc1ccc(-n2c(Cc3nc4n(n3)CCCC4)n[nH]c2=S)cc1	ROD	MT-4	>113 µg/mL
Cc1ccc(C)c(CS(=O)(=O)c2cccc[n+]2[O-])c1	EHO	CEM	14 µg/mL
CC(=O)OCCOCn1cc(Cn2cc(C)c(=O)[nH]c2=O)nn1	ROD	MT-4	>100 µg/mL
COc1ccc(S(=O)(=O)Nc2ccc(-c3nnc(-c4ccc(C)cc4)o3)cc2)cc1	ROD	MT-4	>103 µg/mL
CC1(C)[C@@H](CCO)C[C@H]1n1cnc2c(=O)[nH]c(N)nc21	-	CEM	>100 µg/mL
Cc1ccc(-c2nnc(-c3ccc(N)cc3)o2)cc1	ROD	MT-4	>35 µg/mL
Nc1ncnc2c1ncn2CCCC(O)CF	ROD	CEM	>100 µg/mL
C#CCn1cnc2c(N)ncnc21	ROD	MT-4	>100 µg/mL
Cc1ccc(C)c(C(Cl)S(=O)(=O)c2cc(C)cc[n+]2[O-])c1	EHO	CEM	>4 µg/mL
C[C@H](Cn1cnc2c(N)nc(N)nc21)OCP(=O)(O)O	LAV-2	MT-4	0.179 µM
Nc1nc2c(ncn2CCCC(O)CF)c(=O)[nH]1	ROD	CEM	>100 µg/mL
CC1(C)[C@@H](CCO)C[C@H]1n1cnc2c(=O)[nH]cnc21	-	MT-4	>100 µg/mL
O=S(=O)(NCCCc1n[nH]c(=S)o1)c1ccc(Cl)cc1	ROD	MT-4	>74 µg/mL

The last 2 rows once more:

CC1(C)[C@@H](CCO)C[C@H]1n1cnc2c(=O)[nH]cnc21 ; cells: MT-4 ; value: >100 µg/mL
O=S(=O)(NCCCc1n[nH]c(=S)o1)c1ccc(Cl)cc1 ; strain: ROD ; cells: MT-4 ; value: >74 µg/mL